# Measurements as given in publication PMC12121777 (PLOS One, 2025).
# Read-outs that look alike come from different tables or passages of the source.
# System: HepG2 cells
# Assay: Cytotoxicity on HepG2 cell line (CellTiter 96)
# Format: cell-based, human
Compound,SI for M. kansasii 6509/96,SI for Mtb 331/88 (ratio of IC50 (HepG2) to MIC),SI for Mtb 331/88
"CCCCCCNC(=O)NNC(=O)c1cc([N+](=O)[O-])cc([N+](=O)[O-])c1 [Compound 4f, 2-(3,5-Dinitrobenzoyl)-N-hexylhydrazine-1-carboxamide]",119.0,119.0,–
"CCCCCCCCCCCCCCCNC(=O)NNC(=O)c1cc([N+](=O)[O-])cc([N+](=O)[O-])c1 [Compound 4o, 2-(3,5-Dinitrobenzoyl)-N-pentadecylhydrazine-1-carboxamide]",5.2,5.2,–
"CCCCCNC(=O)NNC(=O)c1cc([N+](=O)[O-])cc([N+](=O)[O-])c1 [Compound 4e, 2-(3,5-Dinitrobenzoyl)-N-pentylhydrazine-1-carboxamide]",66.8,133.6,–
"CCCCCCCCNC(=O)NNC(=O)c1cc([N+](=O)[O-])cc([N+](=O)[O-])c1 [Compound 4h, 2-(3,5-Dinitrobenzoyl)-N-octylhydrazine-1-carboxamide]",136.4,–,272.8
"NNC(=O)c1ccncc1 [INH, isoniazid, reference compound]",–,> 1000,–
"CCCCCCCCCCCCCNC(=O)NNC(=O)c1cc([N+](=O)[O-])cc([N+](=O)[O-])c1 [Compound 4m, 2-(3,5-Dinitrobenzoyl)-N-tridecylhydrazine-1-carboxamide]",40.7,40.7,–
"CCCCCCCCCCCCNC(=O)NNC(=O)c1cc([N+](=O)[O-])cc([N+](=O)[O-])c1 [Compound 4l, 2-(3,5-Dinitrobenzoyl)-N-dodecylhydrazine-1-carboxamide]",41.5,82.9,–
"CCCCNC(=O)NNC(=O)c1cc([N+](=O)[O-])cc([N+](=O)[O-])c1 [Compound 4d, N-Butyl-2-(3,5-dinitrobenzoyl)hydrazine-1-carboxamide]",49.5,98.9,–
"CCCCCCCCCCCCCCNc1nnc(-c2cc([N+](=O)[O-])cc([N+](=O)[O-])c2)o1 [Compound 5n, 5-(3,5-Dinitrophenyl)-N-tetradecyl-1,3,4-oxadiazol-2-amine]",> 50,> 50,–
"CCCCCCCCCCCCCCNC(=O)NNC(=O)c1cc([N+](=O)[O-])cc([N+](=O)[O-])c1 [Compound 4n, 2-(3,5-Dinitrobenzoyl)-N-tetradecylhydrazine-1-carboxamide]",25.9,25.9,–
"CCCCCCCCCCNC(=O)NNC(=O)c1cc([N+](=O)[O-])cc([N+](=O)[O-])c1 [Compound 4j, N-Decyl-2-(3,5-dinitrobenzoyl)hydrazine-1-carboxamide]",35.3,141.0,–
"CCCCCCCCCCCCCCCNc1nnc(-c2cc([N+](=O)[O-])cc([N+](=O)[O-])c2)o1 [Compound 5o, 5-(3,5-Dinitrophenyl)-N-pentadecyl-1,3,4-oxadiazol-2-amine]",> 25,> 25,–
"CCCCCCCNc1nnc(-c2cc([N+](=O)[O-])cc([N+](=O)[O-])c2)o1 [Compound 5g, 5-(3,5-Dinitrophenyl)-N-heptyl-1,3,4-oxadiazol-2-amine]",> 800,–,"> 3,333"
"CCCCCCCCCCCNC(=O)NNC(=O)c1cc([N+](=O)[O-])cc([N+](=O)[O-])c1 [Compound 4k, 2-(3,5-Dinitrobenzoyl)-N-undecylhydrazine-1-carboxamide]",25.0,99.9,–
